ChEMBL document CHEMBL5244272 (Eur J Med Chem, 2021)
≈ marks a conversion by molar mass, not a printed value.

Test system: Plasmodium falciparum
Test: Antimalarial activity against Plasmodium falciparum 3D7
Format: functional, organism-based

Question: With `CC1OOC(C)(C)OO1` as the compound, how does the IC50 read?
Answer: Its IC50 is 1.95 µg/mL (≈ 14.6 µM).
